From patent US20230365956A1 (SYSTIMMUNE, published 2023) come the findings set out here.

The target of experiment [1] is T1, SARS-CoV-1 RBD domain (ACROBiosystems) (SARS-CoV-1).
T1 construct: domain: RBD domain; also called CoV RBD
Nature of the experiment: BLI, avidity format: biotinylated viral protein on SA tip, SI-F019 in solution. For orientation: Biolayer interferometry detects binding as a change in optical thickness at a sensor tip.

Experiment [2] addresses T1, SARS-CoV-1 RBD domain (ACROBiosystems). Nature of the experiment: BLI, affinity format: SI-F019 on AHC tip, viral protein in solution.

B1: SI-F019, fusion protein of huACE2 ([…]) and IgG1 Fc null (purified from SI-69R2) (Fc fusion)
chain: not shown
In experiment [1], B1 had a Kd of 0.33 nM and a koff of 0.000171 s⁻¹. In experiment [2], this molecule showed a Kd of 14 nM and a koff of 0.00597 s⁻¹.

For orientation: koff means the first-order rate constant of dissociation. Low values mean a long-lived complex, high ones a short-lived complex.
